Where “and” joins values, the source holds several entries; their conditions need not be identical. Identical values can stand only once.
Each molecule was assayed on intracellular T. cruzi amastigotes (assay: T. cruzi intracellular assay (high-content imaging, infected Vero cells)). Details: individual replicates.
Format: cell-based, Trypanosoma cruzi
Method: T. cruzi parasite, TcI strain Silvio X10/7 subclone A1 [34] was maintained in culture as previously described. Parasites were maintained as amastigotes by passaging on a weekly basis in Vero cells. Culture maintenance infections were carried out at an MOI (multiplicity of infection) of 1.5.
This assay was performed as described with the only modification that treatment was 96 h instead of 72 h. Briefly, Vero cells were infected overnight with tissue culture derived T. cruzi trypomastigotes in T225 tissue culture flasks (MOI 5). Any remaining free trypomastigotes were washed away with serum free MEM and the infected Vero cells were harvested by trypsinisation. Compounds (250 nL in DMSO) were dispensed using LabCyte ECHO (Beckman Coulter Life Sciences, USA) into each well of Corning black flat bottomed 384-well plates (Corning, USA). […] The infected Vero cells were then plated into the plates containing the compounds, at 4,000 cells per well in MEM media with 1% FCS. After 96 h incubation at 37°C in presence of 5% CO2, the plates were fixed with 4% formaldehyde for 20 min at room temperature and stained with 5 μg/mL Hoechst 33342. The plates were imaged on a Perkin Elmer Operetta high-content imaging system using a 20× objective. Images were analyzed using the Columbus system (Perkin Elmer). The algorithm first identified the Vero nuclei followed by demarcation of the cytoplasm and identification of intracellular amastigotes. This algorithm reported percent infected Vero cell and total number of Vero cells. All potency determinations were carried out in at least three independent replicates and are reported as pEC50 +/- standard deviation. pEC50 = -log(EC50[M]).

| SMILES | Hill slope (T. cruzi) |
| --- | --- |
| COc1ccc2oc(C(=O)Nc3nc(-c4ccccn4)cs3)c(C)c2c1 [Compound 4] | 3.0 and 10.6 and 7.6 and 3.3 |
| Nc1[nH]cnc1-c1nc(-c2ccccc2)cs1 [Compound 7] | 0.751 and 0.663 |
| COc1ccc(CC(=O)Nc2nc(-c3ccccn3)cs2)c(OC)c1 [Compound 12] | 2.9 and 2.8 and 1.6 and 1.8 |
| c1ccc(Cc2ccc(OCCn3ccnc3)cc2)cc1 [Compound 13] | 1.6 and 3.6 and 11.5 and 7.5 |
| CCCS(=O)(=O)c1ccc(NS(=O)(=O)c2sc3ccc(Cl)cc3c2C)cc1 [Compound 24] | 2.6 and 1.1 and 4.3 and 0.571 |
